Source: patent US20240382586A1

Target: SARS-CoV-2 spike, Omicron BA.1 variant (neutralisation assay) (SARS-CoV-2)
Assay: cell-based or functional assay

Sotrovimab (antibody)
% inhibition of Omicron BA.1 at 1 ug/ml: 61%
